Measured values reported in PMC10508830 (Antiviral research, 2023).

Assays:
[1] = biological target: NA of clade 2.3.4.4b A(H5N1) viruses lacking the flagged NA substitutions (n = 15) (Influenza A virus, UniProt Q9Q0U7); assay: fluorescence-based NI assay, baseline; assay type: biochemical
[2] = biological target: NA of A/black vulture/Maryland/22-012407-001/2022 (Influenza A virus (H5N1), UniProt Q9Q0U7); assay: fluorescence-based NI assay; assay type: biochemical; conditions: vulture/MD/22
[3] = biological target: NA of A/Canada goose/Wyoming/22-011671-001/2022 (Influenza A virus, UniProt Q9Q0U7); assay: fluorescence-based NI assay; assay type: biochemical, influenza A(H5N1) virus; conditions: goose/WY/22
[4] = biological target: NA of A/Cooper's hawk/Minnesota/22-012931-001/2022 (Influenza A virus, UniProt Q9Q0U7); assay: fluorescence-based NI assay; assay type: biochemical, influenza A(H5N1) virus; conditions: hawk/MN-1/22
[5] = biological target: NA of A/fox/Michigan/22-014536-004/2022 (del50-70) (Influenza A virus, UniProt Q9Q0U7); assay: fluorescence-based NI assay; assay type: biochemical, influenza A(H5N1) virus; conditions: fox/MI/22, NA del50-70
[6] = biological target: NA of A/Alabama/03/2020 A(H1N1)pdm09 (H275Y) (Influenza A virus, UniProt A0A0X9QTS2, H275Y); assay: fluorescence-based NI assay, reference virus; assay type: biochemical
[7] = biological target: NA of A/bald eagle/Florida/22-006544-004/2022 (Influenza A virus, UniProt Q9Q0U7); conditions: eagle/FL/22
[8] = biological target: NA of A/turkey/Iowa/22-012098-001/2022 (Influenza A virus, UniProt Q9Q0U7); conditions: turkey/IA/22
[9] = biological target: NA of A/red-shouldered hawk/Minnesota/22-012000-004/2022 (Influenza A virus, UniProt Q9Q0U7); conditions: hawk/MN-4/22
[10] = biological target: NA of A/fox/Wisconsin/22-013774-002/2022 (Influenza A virus, UniProt Q9Q0U7); conditions: fox/WI-2/22
[11] = biological target: NA of A/chicken/Pennsylvania/22-012092-006/2022 (G105S) (Influenza A virus (H5N1), UniProt Q9Q0U7, G105S)
[12] = biological target: NA of A/chicken/Pennsylvania/22-012092-010/2022 (G105S) (Influenza A virus (H5N1), UniProt Q9Q0U7, G105S)
[13] = biological target: NA of A/bald eagle/Wyoming/22-013015-001/2022 (S82L, V114A) (Influenza A virus, UniProt Q9Q0U7, S82L/V114A)
[14] = biological target: NA of A/chicken/Idaho/22-011347-004/2022 (I117T) (Influenza A virus (H5N1), UniProt Q9Q0U7, I117T)
[15] = biological target: NA of A/skunk/Washington/22-019274-001/2022 (I117T) (Influenza A virus, UniProt Q9Q0U7, I117T)
[16] = biological target: NA of A/fox/Wisconsin/22-014746-030/2022 (V149I, N355S) (Influenza A virus, UniProt Q9Q0U7, N355S/V149I)
[17] = biological target: NA of A/Virginia opossum/Iowa/22-016780-001/2022 (I188T) (Influenza A virus, UniProt Q9Q0U7)
[18] = biological target: NA of A/dolphin/Florida/22-025319-002/2022 (S247N) (Influenza A virus (H5N1), UniProt Q9Q0U7, S247N)
[19] = biological target: NA of A/black vulture/Florida/22-010358-001/2022 (N295D) (Influenza A virus, UniProt Q9Q0U7, N295D)
[20] = biological target: NA of A/black vulture/Florida/22-012331-001/2022 (N295S, T438N) (Influenza A virus, UniProt Q9Q0U7, N295S/T438N)
[21] = biological target: NA of A/black vulture/Florida/22-012333-001/2022 (N/S295, T/N438, mixed population) (Influenza A virus (H5N1), UniProt Q9Q0U7)
[22] = biological target: NA of A/black vulture/Florida/22-012333-001/2022 clone1 (N295S) (Influenza A virus (H5N1), UniProt Q9Q0U7, N295S)
[23] = biological target: NA of A/black vulture/Florida/22-012333-001/2022 clone2 (T438N) (Influenza A virus (H5N1), UniProt Q9Q0U7, T438N)
[24] = biological target: NA of A/black vulture/Florida/22-012333-001/2022 clone3 (N295S, T438N) (Influenza A virus (H5N1), UniProt Q9Q0U7, N295S/T438N)
[25] = biological target: NA of A/harbor seal/Maine/22-020983-002/2022 (T362I) (Influenza A virus, UniProt Q9Q0U7, T362I)
[26] = biological target: NA of A/chicken/Michigan/22-013961-001/2022 (I443T) (Influenza A virus (H5N1), UniProt Q9Q0U7, I443T)
[27] = biological target: NA of A/Illinois/45/2019 A(H1N1)pdm09 (Influenza A virus, UniProt A0A0X9QTS2); conditions: read-out: Mean IC50 ± SD; reference IL/45/19 A(H1N1)pdm09; wildtype NA
[28] = read-out: Mean IC50 ± SD, no NA change
[29] = relative to median IC50 A(H5N1)

With `CCC(CC)O[C@@H]1C=C(C(=O)O)C[C@H](N=C(N)N)[C@H]1NC(=O)CF` the “relative potency at inhibiting NA activity” value ([1]; among the five NA inhibitors tested) was “most potent”, the “potency at inhibiting NA activity compared to oseltamivir (median IC50)” value ([1]; baseline clade 2.3.4.4b viruses) was 67 fold and the IC50 ([1]; read-out: Median IC50 A(H5N1), baseline susceptibility, viruses lacking flagged NA substitutions (n = 15)) was 0.04 nM. It also gave an IC50 [2, 28] of 0.05 nM, an IC50 fold-change [2, 29] of 1 fold and an IC50 fold-change [3, 29] of 1 fold. It also gave an IC50 [3, 28] of 0.03 nM, an IC50 fold-change [4, 29] of 1 fold and an IC50 [4, 28] of 0.04 nM. The IC50 fold-change [5, 29] was 1 fold, the IC50 ([5]; read-out: Mean IC50 ± SD) was 0.04 nM and the IC50 fold-change ([6]; AL/03/20 A(H1N1)pdm09, relative to NA sequence-matched wildtype reference virus IC50) was 8 fold. For the same molecule, the IC50 ([6]; read-out: Mean IC50 ± SD, reference AL/03/20 A(H1N1)pdm09) was 0.76 nM, the IC50 fold-change [7, 29] was 1 fold and the IC50 [7, 28] was 0.04 nM. The IC50 [8, 28] was 0.04 nM, the IC50 fold-change [8, 29] was 1 fold and the IC50 fold-change [9, 29] was 1 fold. For the same molecule, the IC50 [9, 28] was 0.03 nM, the IC50 fold-change [10, 29] was 1 fold and the IC50 [10, 28] was 0.04 nM. The IC50 fold-change ([11]; chicken/PA-6/22, relative to median IC50 A(H5N1)) was 2 fold, the IC50 ([11]; read-out: Mean IC50 ± SD, chicken/PA-6/22) was 0.06 nM and the IC50 fold-change ([12]; chicken/PA-10/22, relative to median IC50 A(H5N1)) was 2 fold. For the same molecule, the IC50 ([12]; read-out: Mean IC50 ± SD, chicken/PA-10/22) was 0.08 nM, the IC50 fold-change ([13]; eagle/WY/22, relative to median IC50 A(H5N1)) was 2 fold and the IC50 ([13]; read-out: Mean IC50 ± SD, eagle/WY/22) was 0.06 nM. It also gave an IC50 fold-change ([14]; chicken/ID/22, relative to median IC50 A(H5N1)) of 1 fold, an IC50 ([14]; read-out: Mean IC50 ± SD, chicken/ID/22) of 0.05 nM and an IC50 ([15]; read-out: Mean IC50 ± SD, skunk/WA/22) of 0.04 nM. It also gave an IC50 fold-change ([15]; skunk/WA/22, relative to median IC50 A(H5N1)) of 1 fold, an IC50 fold-change ([16]; fox/WI-30/22, relative to median IC50 A(H5N1)) of 1 fold and an IC50 ([16]; read-out: Mean IC50 ± SD, fox/WI-30/22) of 0.05 nM. For the same molecule, the IC50 fold-change ([17]; opossum/IA/22, relative to median IC50 A(H5N1)) was 1 fold, the IC50 ([17]; read-out: Mean IC50 ± SD, opossum/IA/22) was 0.05 nM and the IC50 fold-change ([18]; dolphin/FL-2/22 (dolphin/FL/22), relative to median IC50 A(H5N1)) was 2 fold. It also gave an IC50 ([18]; read-out: Mean IC50 ± SD, dolphin/FL-2/22 (dolphin/FL/22)) of 0.09 nM, an IC50 ([19]; read-out: Mean IC50 ± SD, vulture/FL-58/22) of 0.15 nM and an IC50 fold-change ([19]; vulture/FL-58/22, relative to median IC50 A(H5N1)) of 4 fold. The IC50 ([20]; read-out: Mean IC50 ± SD, vulture/FL-31/22) was 2.19 nM, the IC50 fold-change ([20]; vulture/FL-31/22, relative to median IC50 A(H5N1)) was 55 fold and the IC50 [21] was 0.14 nM. It also gave an IC50 [22] of 0.28 nM, an IC50 fold-change ([22]; clone 1, NA N295S, relative to median IC50 A(H5N1)) of 7 fold and an IC50 [23] of 0.06 nM. The IC50 fold-change ([23]; clone 2, NA T438N, relative to median IC50 A(H5N1)) was 2 fold, the IC50 [24] was 2.03 nM and the IC50 fold-change ([24]; clone 3, NA N295S, T438N, relative to median IC50 A(H5N1)) was 51 fold. It also gave an IC50 ([25]; read-out: Mean IC50 ± SD, seal/ME-2/22) of 0.04 nM, an IC50 fold-change ([25]; seal/ME-2/22, relative to median IC50 A(H5N1)) of 1 fold and an IC50 fold-change ([26]; chicken/MI/22, relative to median IC50 A(H5N1)) of 1 fold. For the same molecule, the IC50 ([26]; read-out: Mean IC50 ± SD, chicken/MI/22) was 0.04 nM and the IC50 [27] was 0.09 nM.
